## Percent effect of library compounds

Source: ChEMBL document CHEMBL3988442, “University of Dundee, Small-Polar-MMV Screening Library” (2021).

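Growth of Mycobacterium tuberculosis over 3 days (7H9 medium with glucose and tyloxapol); the read-out is not stated. Compounds at 500 µM. The record gives no direction; compounds that gave an IC50 in retests scored well above the rest, so higher reads as more growth inhibition. About 18,000 compounds were tested under these conditions; 7.9% (about 1,400) showed 50% or more at least once.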

The filed quantity is “Percent Effect” (%).
How 0% and 100% were set is not recorded. Most values in the screen are low, and negative values occur.
Many other results are left out here, so strong results are more common than in the screen.

CCC(N)c1cccc(OC)c1OC (stereo unspecified) read 2.13%.
NCc1nc(C(F)F)no1 read 53.16%.
CCc1nnc2n1CC(NC(=O)Cn1cccn1)CC2 (stereo unspecified) read 5.453%.
CN(Cc1nccn1C)C(=O)COCC1CCCO1 (stereo unspecified) read 0.6454%.
CN(Cc1cc(Br)cs1)C(=O)CC1(N)CCC1 read 53.78%.
CNCCCNC(=O)CCc1ccsc1 read 7.075%.
Cn1nccc1CCNc1ccc(F)cn1 read 21.84%.
CC(NCc1cccc2c1OCCO2)c1ccncc1 (stereo unspecified) read 56.23%.
O=C(CN1CCCC1c1ccccc1)N1CCNC1=O (stereo unspecified) read -11.28%.
Cc1ccsc1CN1CC(O)(CC#N)C1 read -3.01%.
CCCc1nc(CN2C(=O)c3ccccc3C2=O)no1 read 15.48%.
COCCNCCNC(=O)c1csc2ccccc12 read 40.45%.
Cc1cc(C)c(NC(=O)N[C@@H]2CCNC[C@H]2O)c(Cl)c1 read 21.29%.
Cc1ccc(C(C)C(=O)NCCS(N)(=O)=O)s1 (stereo unspecified) read -5.104%.
CS(=O)(=O)NCc1ccnc(N2CCCCCC2)c1 read 10.16%.
COC1CCN(CCC(=O)Nc2cccnc2)C1 (stereo unspecified) read -10.06%.
O=C(Cc1ccc(O)c(Cl)c1)N[C@@H]1CS(=O)(=O)C[C@H]1O read 5.555%.
CN(C(=O)C1CCOC1)c1ncc(Cl)cc1Cl (stereo unspecified) read 2.315%.
Fc1ccc(NCC2CCC3(CC2)OCCO3)nc1 read 66.64%.
c1cnn(CCN2CCCC2Cn2cccn2)c1 (stereo unspecified) read 4.229%.
CN1CCN(c2cc(C3CC(N)C3)nc(N)n2)CC1 (stereo unspecified) read 7.789%.
Cc1nc(CNc2ccn(-c3ncccc3Cl)n2)no1 read -8.727%.
COc1cccc(OCCNC(N)=O)c1 read -4.913%.
C[C@@H](CO)NC(=O)c1ccccc1NCc1ccco1 read 16.47%.
CC(C)(C)OC(=O)N1CCN(c2ccc(N)nc2)CC1 read 41.7%.
Cc1ccoc1C(=O)N1CCCC(C)C1 (stereo unspecified) read 10.49%.
COC1CCN(Cc2cccc(OCC(N)=O)c2)C1 (stereo unspecified) read 17.01%.
CN(C)C(=O)N1CCN(C(=O)C2CCCNC2)CC1 (stereo unspecified) read 8.842%.
CC1(C)Cc2cc(CN)ccc2O1 read -0.2265%.
Oc1ccc2c(c1)COC2 read 8.359%.
O=C(CN1CCC(CO)CC1)N1CCc2sccc2C1 read 11.19%.
NCCCc1nc(-c2ccccn2)cs1 read 34.19%.
CNC(=O)C(C)S(=O)(=O)Cc1ccc(F)cc1Cl (stereo unspecified) read 15.5%.
CSc1ccc(Cl)c(C(=O)N2CCN(C)CC2)c1 read 30.84%.
OCc1cc(N2CCC(O)CC2)ccn1 read 3.285%.
COCCN(C)CCC(N)c1ccccc1 (stereo unspecified) read 15.76%.
OCc1cnc(-c2ccco2)o1 read -5.097%.
CCCN(CCC)S(=O)(=O)N1CCNCC1 read 14%.
CCS(=O)(=O)N1CCC(C(=O)NC(C)(C)C)CC1 read 4.716%.
CC(=O)N(Cc1noc(C(C)C)n1)C1CCNC1 (stereo unspecified) read 10.77%.
N#Cc1ccc2nc[nH]c2c1 read -4.812%.
COCC(C)(O)C(=O)N(C)Cc1ccccc1 (stereo unspecified) read 5.638%.
CS(=O)(=O)N1CCN(C(=O)c2ccccc2)C1 read 13.54%.
CCNC(=O)CCc1nc(-c2ccccc2OC)no1 read 24.22%.
CC(CN)CC(F)(F)F (stereo unspecified) read 7.112%.
CNC(=O)C1CN(c2ccc(F)cn2)CCO1 (stereo unspecified) read 22.48%.
CN(C)c1ccc(C(=O)NCCC(O)C(F)(F)F)cc1 (stereo unspecified) read 33.33%.

Once more, the final 3:

{"structure": "CC(CN)CC(F)(F)F", "stereo": "stereo unspecified", "effect": 7.112}
{"structure": "CNC(=O)C1CN(c2ccc(F)cn2)CCO1", "stereo": "stereo unspecified", "effect": 22.48}
{"structure": "CN(C)c1ccc(C(=O)NCCC(O)C(F)(F)F)cc1", "stereo": "stereo unspecified", "effect": 33.33}